## Potato spindle tuber viroid, loop 15: variant abundance in plants

From the data files of Wu et al. 2024, doi:10.1371/journal.ppat.1012142.

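Three N. benthamiana plants were inoculated with the whole mutant pool. Samples came from the inoculated region at 5 days, the leaf margin at 10 and upper systemic leaves at 12.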

The pool varies loop 15 of the PSTVd intermediate strain in the pattern GGAAACCGNNNNNNC; wild type is GGAAACCGCUACUAC (upper and lower strand joined, each 5' to 3', the first 7 letters being the upper strand, closing pairs included).

Numbers give reads per thousand; 0 = not seen among the reads, higher = more abundant. Each value is the mean of three plants. "Pool" is the share in the plasmid pool used as inoculum, on the same scale. The inoculated region was read from the minus strand, the other sites from the plus strand. IR is the inoculated region, LM the leaf margin, Sys the systemic leaves.

sequence	pool	IR	LM	Sys
GGAAACCGCUGUAGC	0.176	0.0838	0.00668	0
GGAAACCGUAACCUC	0.368	0.279	0.0844	0.00537
GGAAACCGUCCAAGC	0.272	0.158	0.0141	0
GGAAACCGCACGACC	0.352	0.0946	0.0108	0
GGAAACCGAUUACCC	0.112	0.0615	0.00668	0
GGAAACCGCUCAGCC	0.400	0.109	0	0.00760
GGAAACCGUAAGCAC	0.208	0.343	0.0900	0.0811
GGAAACCGGCCAGAC	0.208	0.113	0.00742	0
GGAAACCGGCAACUC	0.256	0.128	0.0262	0.00537
GGAAACCGUAGCACC	0.112	0.0514	0.00539	0
GGAAACCGAAGCGUC	0.336	0.105	0.00668	0
GGAAACCGGAAGGGC	0.208	0.0463	0.00668	0
GGAAACCGACAUGCC	0.320	0.115	0.0121	0
GGAAACCGCGACGUC	0.304	0.108	0	0
GGAAACCGUUCUAUC	0.288	0.423	0.140	0.0158
GGAAACCGGUUGGCC	0.272	0.0960	0.00742	0
GGAAACCGACGGUCC	0.336	0.0570	0.00539	0
GGAAACCGGGGCCAC	0.224	0.0912	0.00742	0
GGAAACCGCUUAUCC	0.208	0.149	0.00539	0
GGAAACCGGUGAUAC	0.272	0.101	0.00539	0
GGAAACCGCAAGGGC	0.240	0.0946	0.00539	0
GGAAACCGACGCUUC	0.272	0.216	0.00742	0
GGAAACCGUGCCGCC	0.208	0.109	0.0121	0
GGAAACCGCCUCUAC	0.288	0.320	0.0872	0.0215
GGAAACCGCAUAGCC	0.256	0.114	0.0134	0
GGAAACCGUGGUUGC	0.224	0.0911	0.00742	0
GGAAACCGAGUCCCC	0.208	0.190	0.00668	0
GGAAACCGUGACUCC	0.0800	0.276	0.0960	0.00537
GGAAACCGGUUCUCC	0.256	0.0964	0.0141	0
GGAAACCGGCCAGGC	0.288	0.0771	0	0
GGAAACCGGCGUCGC	0.224	0.141	0	0.00504
GGAAACCGCUCGCAC	0.240	0.0551	0	0
GGAAACCGCGCUUAC	0.208	0.268	0.0913	0.0259
GGAAACCGUCACGGC	0.288	0.0861	0.00539	0
GGAAACCGGGCUCCC	0.128	0.106	0.0187	0
GGAAACCGUCUGUAC	0.192	0.277	0.143	0.0255
GGAAACCGGCCUCAC	0.128	0.107	0.00668	0
GGAAACCGGAGUUUC	0.208	0.0893	0.0121	0.00537
GGAAACCGCGAACUC	0.208	0.355	0.163	0.00537

With 43,870-66,106 reads a sample, very low values are single reads. For reference, wild type rose from 33.9 per thousand in the pool to 202, 200, 159 (inoculated region), 724, 746, 710 (leaf margin) and 856, 883, 880 (systemic leaves). The authors trace changes outside the varied positions to PCR and sequencing errors or to mutation in the plant; presence does not show that a variant is infectious alone.